Biological target: the molecule itself

B1: sEC1-4(T141C/G337C) (with C432S) (domain or fragment)
chain: TRVVYKVPEEQPPNTLIGSLAADYGFPDVGHLYKLEVGAPYLRVDGKTGDIFTTETSIDREGLRECQNQLPGDPCILEFEVSICDLVQNGSPRLLEGQIEVQDINDNTPNFASPVITLAIPENTNIGSLFPIPLASDRDAGPNGVASYELQAGPEAQELFGLQVAEDQEEKQPQLIVMGNLDRERWDSYDLTIKVQDGGSPPRASSALLRVTVLDTNDNAPKFERPSYEAELSENSPIGHSVIQVKANDSDQGANAEIEYTFHQAPEVVRRLLRLDRNTCLITVQGPVDREDLSTLRFSVLAKDRGTNPKSARAQVVVTVKDMNDNAPTIEIRGIGLVTHQDGMANISEDVAEETAVALVQVSDRDEGENAAVTSVVAGDVPFQLRQASETGSDSKKKYFLQTTTPLDYEKVKDYTIEIVAVDSGNPPLSSTNSLKVQVVDVNDNA
modifications: intersubunit disulfide between the engineered cysteines at 141 and 337
Question: Which “stoichiometry N” value does the source give for B1 here?
Answer: The value was 2.
